Anti-infective test results gathered from many reports (values: NIAID ChemDB through PubChem).

Shared fields: growth or infection tests; agent: Mycobacterium tuberculosis

a–b is a range or a potency band.

compound	tested at	cell line	read by	measure	strain	mutations	value
Cc1c(O)c(=O)ccn1CCO			BACTEC	MIC bound	H37Rv		>12.5 µg/mL
CO[C@H]1/C=C/O[C@@]2(C)Oc3c(C)c(O)c4c(O)c(c(/C=N/N5CCN(C)CC5)c(O)c4c3C2=O)NC(=O)/C(C)=C\C=C\[C@H](C)[C@H](O)[C@@H](C)[C@@H](O)[C@@H](C)[C@H](OC(C)=O)[C@@H]1C				MIC	13267		0.04 µg/mL
O=c1oc2ccccc2c(O)c1C1=NNC(c2ccccc2-c2ccccn2)C1			agar	MIC90	H37Rv		5.15 µg/mL
CCOc1ccc(NC(=O)/C(CC(=O)c2c[n+](=O)c3ccccc3n2[O-])=N/OCCCc2ccccc2)cc1			BACTEC	MIC bound	H37Rv		>12.5 µg/mL
C[C@H](c1ccccc1)N1C/C(=C/c2ccc(Cl)cc2Cl)[C@]2(ON=C(c3ccccc3)O2)C2(C1)ON=C(c1ccccc1)[C@H]2c1ccc(Cl)cc1Cl				MIC	MDR-TB		1.03 µM
COc1cc(-c2nnc(SCC(=O)c3ccccc3)o2)cc(OC)c1OC	6.25 µg/mL		BACTEC	inhibition	H37Rv		19%
O=C(SCC1CS1)c1ccccc1				MIC	H37Rv		1.56 µg/mL
Cc1cc2oc(=O)c(C3=NN(c4ccccc4)C(c4ccc(C(F)(F)F)cc4)C3)c(O)c2cc1C			agar	MIC90	H37Rv		>6.25 µg/mL
CCCCNC(=S)NNC(=O)COc1cnccn1				MIC	H37Rv		45 µg/mL
Cc1ccc(/C=C2/NC(=S)NC2=O)cc1	6.25 µg/mL		BACTEC	inhibition	H37Rv		26%
Cc1cccc(C)c1Nc1nnc(-c2ccccn2)o1			visual reading	MIC	H37Rv		>20 µM
CC(C)Cn1c(-c2ccc(Cl)cc2Cl)cs/c1=N\NC(=O)COc1cnccn1				MIC	H37Rv		15 µg/mL
C=C(C)CC[C@H]1CN(c2ccn(N3CCOCC3)c2)C(=O)O1				MIC90	ATCC 35820 (streptomycin-resistant)		>100 µM
O=C1NC(=S)N/C1=C/c1ccc(Br)cc1	6.25 µg/mL		BACTEC	inhibition	H37Rv		83%
Cc1c(O)cc2c(c1O)C(=O)CC(c1ccc(O)cc1)O2	12.5 µg/mL		BACTEC	inhibition	H37Rv		37%
CC(C)NC(=S)NNC(=O)COc1cnccn1				MIC	H37Rv		56 µg/mL
CCC(=O)OCC(S)CS				MIC	H37Rv		12.5 µg/mL
CCc1cc(C(N)=S)ccn1				MIC	90-0241 (drug-susceptible)		0.5 µg/mL
O=C(CSc1nnc(-c2ccccc2)o1)c1ccc([N+](=O)[O-])cc1	6.25 µg/mL		BACTEC	inhibition	H37Rv		24%
O=C1NC(=S)N/C1=C/c1cccc(O)c1			BACTEC	EC50	H37Rv		>6.25 µg/mL
NNC(=O)c1ccncc1				MIC	90-0233 (INH SM-RS)		2.5 µg/mL
O=C(O)c1ccc(NC(=S)S)cc1			BACTEC	MIC bound	H37Rv		>12.5 µg/mL
COc1cc(-c2nnc(SCC(=O)c3ccc(F)cc3)o2)cc(OC)c1OC	6.25 µg/mL		BACTEC	inhibition	H37Rv		27%
C[C@H](c1ccccc1)N1C/C(=C/c2ccc(Cl)cc2)[C@]2(ON=C(c3ccccc3)O2)C2(C1)ON=C(c1ccccc1)[C@H]2c1ccc(Cl)cc1				MIC	H37Rv		4.56 µM
Cc1cc2oc(=O)c(C3=NN(c4ccccc4)C(c4ccc(O)cc4O)C3)c(O)c2cc1C			agar	MIC90	H37Rv		>6.25 µg/mL
CC(C)c1ccc(/C=C2/NC(=S)NC2=O)cc1	6.25 µg/mL		BACTEC	inhibition	H37Rv		89%
C[C@H](c1ccccc1)N1C/C(=C\c2ccc(Cl)cc2Cl)[C@@]2(ON=C(c3ccccc3)O2)[C@@]2(C1)ON=C(c1ccccc1)[C@@H]2c1ccc(Cl)cc1Cl				MIC	H37Rv		1.03 µM
O=[N+]([O-])c1cc2ncccc2c2ncccc12			BACTEC	MIC	H37Rv		6.25 µg/mL
COc1cccc(C2CC(c3c(O)c4ccccc4oc3=O)=NN2c2ccccc2)c1O			agar	MIC90	INHR-MTB	Isoniazid-resistant	>6.25 µg/mL
COC(=O)C1C(OC(C)=O)C(C)C(O)C(C)(O)/C=C(\C)C2=C3C(=C(C)C(=O)c4c(O)c(c(C)c(OC(C)=O)c43)NC(=O)/C(C)=C/C=C\[C@](C)(O)C(O)[C@@H](C)C1O)OCO2		VERO		MIC	H37Rv		1.6 µg/mL
C[C@H](c1ccccc1)N1C/C(=C\c2ccccc2)C(=O)/C(=C/c2ccccc2)C1				MIC	H37Rv		65.88 µM
Cc1ccc(NC(=O)c2ccccc2C(=O)O)cc1Cl			BACTEC	MIC bound	H37Rv		>12.5 µg/mL
C[C@H](c1ccccc1)N1C/C(=C/c2ccccc2)[C@]2(ON=C(c3ccccc3)O2)C2(C1)ON=C(c1ccccc1)[C@H]2c1ccccc1				MIC			20.24 µM
O=C1NC(=S)N/C1=C/c1cccc(OCc2ccc(Cl)cc2)c1	6.25 µg/mL		BACTEC	inhibition	H37Rv		95%
Cc1c2ccncc2c(C)c2c1[nH]c1ccc(Cl)cc12	6.25 µg/mL		resazurin	inhibition	H37Rv		100%
CC1COc2c(N3CCN(C)CC3)c(F)cc3c(=O)c(C(=O)O)cn1c23			broth dilution	MIC	H37Rv (ATCC 27294)		0.5–1 µM
CN1C(=O)C2CCC1n1c(=O)n(-c3ccccc3)c(=O)n12	6.25 µg/mL		resazurin	inhibition	H37Rv		10%
C[C@H](c1ccccc1)N1C/C(=C\c2ccccc2)[C@@]2(ON=C(c3ccc(Cl)cc3)O2)[C@@]2(C1)ON=C(c1ccc(Cl)cc1)[C@@H]2c1ccccc1				MIC	H37Rv		4.56 µM
CC(C)n1c(-c2ccc(Br)cc2)cs/c1=N\NC(=O)COc1cnccn1				MIC	H37Rv		8.1 µg/mL
CCOc1ccccc1-c1nc2c(s1)C(=O)c1ccccc1C2=O			BACTEC	MIC	H37Rv		1.6 µg/mL
Cc1ccc(C)c(/C=C2/NC(=S)NC2=O)c1			BACTEC	EC50	H37Rv		<6.25 µg/mL
COc1cc(-c2n[nH]c(=S)o2)cc(OC)c1OC	6.25 µg/mL		BACTEC	inhibition	H37Rv		3%
O=C([C@@H](O)CO)N1CC=C(c2c(F)cc(N3C[C@H](COc4ccon4)OC3=O)cc2F)CC1			broth dilution	MIC	H37Rv (ATCC 25618)		0.5 µg/mL
C[C@H](c1ccccc1)N1C[C@@]2(ON=C(c3ccccc3)[C@H]2c2ccc(Cl)cc2Cl)C2(ON=C(c3ccccc3)O2)[C@]2(C1)ON=C(c1ccccc1)[C@H]2c1ccc(Cl)cc1Cl				MIC	H37Rv		1.78 µM
O=C1NC(=S)N/C1=C/c1cccc(Cl)c1			BACTEC	EC50	H37Rv		<6.25 µg/mL
C[C@H](c1ccccc1)N1C/C(=C\c2cccc3ccccc23)C(=O)/C(=C/c2cccc3ccccc23)C1				MIC	H37Rv		13.03 µM
O=c1oc2ccccc2c(O)c1C1=NNC(c2ccc(Cl)cc2Cl)C1			agar	MIC90	H37Rv		>6.25 µg/mL
CSc1nnc(-c2ccccc2O)o1	6.25 µg/mL		BACTEC	inhibition	H37Rv		30%
NNC(=O)c1ccncc1			broth dilution	MIC	Harlingen		0.03 µg/mL
O=C1NC(=S)N/C1=C\c1c(Cl)cccc1Cl	6.25 µg/mL		BACTEC	inhibition	H37Rv		0%
COc1cc(-c2nnc(SCC(=O)c3ccc(Cl)cc3Cl)o2)cc(OC)c1OC	6.25 µg/mL		BACTEC	inhibition	H37Rv		12%
CCCCCCCCCCCCCCCCN(/N=C/c1ccc([N+](=O)[O-])o1)C(N)=O	6.25 µg/mL		resazurin	inhibition	H37Rv		-51%
Cc1cc2oc(=O)c(C3=NN(c4ccccc4)C(c4ccccc4-c4ccccn4)C3)c(O)c2cc1C			agar	MIC90	INHR-MTB	Isoniazid-resistant	>6.25 µg/mL
S=c1[nH]nc(-c2ccc(Cl)cc2Cl)o1	6.25 µg/mL		BACTEC	inhibition	H37Rv		20%
CO[C@H]1/C=C/O[C@@]2(C)Oc3c(C)c(O)c4c(O)c(c(/C=N/N5CCN(C)CC5)c(O)c4c3C2=O)NC(=O)/C(C)=C\C=C\[C@H](C)[C@H](O)[C@@H](C)[C@@H](O)[C@@H](C)[C@H](OC(C)=O)[C@@H]1C				MIC	H37Rv		0.4 µg/mL
CC(C)(C)c1ccc(C(=O)Nc2nc(-c3ccccn3)cs2)cc1			visual reading	MIC99	H37Rv		0.25 µM
O=c1oc(-c2cc(-c3ccccc3)nc3ccccc23)nn1CN1CCCC1			BACTEC	MIC bound	H37Rv		>12.5 µg/mL
CCCOc1ccc(/C=C2/NC(=S)NC2=O)cc1			BACTEC	EC50	H37Rv		<6.25 µg/mL
CC(C)(C)C(=O)Nc1nc(-c2ccccn2)cs1			visual reading	MIC	H37Rv		2.8 µM
CC1COc2c(N3CCN(C)CC3)c(F)cc3c(=O)c(C(=O)O)cn1c23				MIC	92-0492 MDR (INH RIF-resistant)		1 µg/mL
CO[C@H]1/C=C/O[C@@]2(C)Oc3c(C)c(O)c4c(O)c(c(/C=N/N5CCN(C6CCCC6)CC5)c(O)c4c3C2=O)NC(=O)/C(C)=C\C=C\[C@H](C)[C@H](O)[C@@H](C)[C@@H](O)[C@@H](C)[C@H](OC(C)=O)[C@@H]1C				MIC	1030		0.02 µg/mL
O=c1oc2ccccc2c(O)c1C1=NN(c2ccccc2)C(c2ccc(Cl)cc2Cl)C1			agar	MIC90	INHR-MTB	Isoniazid-resistant	21.78 µg/mL
C[C@H](c1ccccc1)N1C/C(=C\c2ccccc2Cl)[C@@]2(ON=C(c3ccccc3)O2)[C@@]2(C1)ON=C(c1ccccc1)[C@@H]2c1ccccc1Cl				MIC	H37Rv		9.03 µM
O=C(OC(CS)CS)c1ccccc1				MIC	H37Rv		1.56 µg/mL
COc1ccc(/C=N/Nc2nnc3c4cccnc4c4ccccc4c3n2)cc1OC			BACTEC	MIC	H37Rv		≥12.5 µg/mL
CC(C)Cn1c(-c2ccc(Cl)cc2)cs/c1=N\NC(=O)COc1cnccn1				MIC	H37Rv		19 µg/mL
O=C1c2ccccc2C(=O)c2sc(Nc3ccccc3C(F)(F)F)nc21			BACTEC	MIC	H37Rv		0.8 µg/mL
NCC[C@H](O)C(=O)N[C@@H]1C[C@H](N)[C@@H](O[C@H]2O[C@H](CN)[C@@H](O)[C@H](O)[C@H]2O)[C@H](O)[C@H]1O[C@H]1O[C@H](CO)[C@@H](O)[C@H](N)[C@H]1O				MIC	90-0240 (drug-susceptible)		0.5 µg/mL
Nc1nccc(NCCSCc2ccccc2)n1			BACTEC	MIC bound	H37Rv		>12.5 µg/mL
COc1cccc(C2(CSc3nnc(-c4ccc(O)cc4)o3)OCCO2)c1	6.25 µg/mL		BACTEC	inhibition	H37Rv		0%
NC[C@H]1O[C@H](O[C@H]2[C@H](O)[C@@H](O[C@H]3O[C@H](CO)[C@@H](O)[C@H](N)[C@H]3O)[C@H](N)C[C@@H]2N)[C@H](O)[C@@H](O)[C@@H]1O				MIC	90-0216 (drug-susceptible)		2 µg/mL
O=C1N=C2SC=C(NC(=S)Nc3ccccc3)N2NC12c1ccccc1-c1ccccc12			BACTEC	MIC bound	H37Rv		>12.5 µg/mL
OCC(S)CCCCCCCCCS				MIC	H37Rv		>50 µg/mL
S=C(S)N1CCOCC1			BACTEC	MIC bound	H37Rv		>12.5 µg/mL
O=C(OCC(S)CS)c1ccccc1				MIC	H37Rv		12.5 µg/mL
CC(=O)O[C@@H]1[C@H]2[C@H](C[C@@H](C)C3C=CC(=O)[C@]31C)OC(=O)[C@@H]2C	12.5 µg/mL		BACTEC	inhibition	H37Rv		5%
c1ccc(Nc2nc(-c3ccn[nH]3)cs2)nc1			visual reading	MIC	H37Rv		20 µM
COc1cc(Cl)c(CC(=O)c2c[nH]c3ccccc23)cc1OC	6.25 µg/mL		BACTEC	inhibition	H37Rv		0%
CC1SC1CS				MIC	H37Rv		100 µg/mL
Cn1c(=O)c2c(ncn2Cc2ccc(O)c([N+](=O)[O-])c2)n(C)c1=O			BACTEC	MIC bound	H37Rv		>12.5 µg/mL
CC(=O)c1csc(Nc2ccccn2)n1			visual reading	MIC	H37Rv		>20 µM

Repeating the final 8 entries:

compound,tested at,cell line,read by,measure,strain,mutations,value
S=C(S)N1CCOCC1,,,BACTEC,MIC bound,H37Rv,,>12.5 µg/mL
O=C(OCC(S)CS)c1ccccc1,,,,MIC,H37Rv,,12.5 µg/mL
CC(=O)O[C@@H]1[C@H]2[C@H](C[C@@H](C)C3C=CC(=O)[C@]31C)OC(=O)[C@@H]2C,12.5 µg/mL,,BACTEC,inhibition,H37Rv,,5%
c1ccc(Nc2nc(-c3ccn[nH]3)cs2)nc1,,,visual reading,MIC,H37Rv,,20 µM
COc1cc(Cl)c(CC(=O)c2c[nH]c3ccccc23)cc1OC,6.25 µg/mL,,BACTEC,inhibition,H37Rv,,0%
CC1SC1CS,,,,MIC,H37Rv,,100 µg/mL
Cn1c(=O)c2c(ncn2Cc2ccc(O)c([N+](=O)[O-])c2)n(C)c1=O,,,BACTEC,MIC bound,H37Rv,,>12.5 µg/mL
CC(=O)c1csc(Nc2ccccn2)n1,,,visual reading,MIC,H37Rv,,>20 µM

MIC bound comes from a single tested concentration. ECn is the concentration giving n% inhibition of infection, replication or growth. Inhibition is in % at the dose shown (toxicity tests: loss of growth or viability). A number after MIC or MFC names an inhibition level or a share of isolates. Blank or dashed fields: not listed here. Neighbouring rows are from separate reports.